Compound potency records, mixed from different reports. Data source: NIAID ChemDB in PubChem.

Shared fields: host cell toxicity; endpoint: CC50

CCn: concentration that lowers growth or viability of the cells by n%. An empty or dashed field is not shown. Rows are shuffled and stem from different studies.

compound,cells,read by,result
FC(F)(F)c1ccc(NC(=S)NCCc2ccc3c(n2)NCCC3)cc1,PBMC,-,0.2 µM
CCOC(=O)c1ccc(N2Cc3c(c(OC)c4ccccc4c3OC)CC2=N)cc1,J774A.1 macrophages,neutral red,124 µM
NC(=S)Nc1cccc(OCCCCCOc2ccc(-c3ccc(Br)cc3)cc2)c1,Ava5-EG(delta4AB)SEAP,MTS,>1 µM
N#Cc1c(-c2ccco2)nc(SCC(=O)Nc2nc(-c3ccccc3)cs2)[nH]c1=O,MDM,-,>100 µM
Clc1ccc(-c2cnc(CNc3ccnc4cc(Cl)ccc34)[nH]2)cc1,HMEC-1,MTT,7.447 µM
O=c1oc(-c2ccccc2)ns1,Vero cell,ATP,12 µM
CC(C)C[C@@H]1NC(=O)[C@H](Cc2c[nH]c3ccccc23)NC(=O)[C@H](CCCCN)NC(=O)[C@H](CC(N)=O)NC(=O)[C@H](C(C)C)NC(=O)[C@@H](CC(C)C)NC1=O,Lung carcinoma cells,MTT,>30 µM
O=C(c1ccccc1)c1ccc(/C=C/c2nsc(=O)o2)cc1,Vero cells,ATP,16 µM
N=c1c2ncnc(Nc3ccc(F)cc3)c2ncn1NC(=O)c1ccccc1,Vero cells,-,2.92 µg/mL
CCn1c(-c2ccccc2)c(C)c(=O)c2c(Cl)c(OCC(C)C)ccc21,HeLa S3,MTT,>4 µg/mL
Cc1ccc(-n2sc3ccccc3c2=O)cc1,MDM,-,>90 µM
Cc1cc(O)c(O)c(O)c(=O)c1,CEM-SS,absorbance,2.1 µM
O=C(CCc1ccc2c(n1)NCCC2)NCc1ccc(Cl)c(Cl)c1,PBMC,-,13 µM
COc1cccc(-c2nsc(=O)o2)c1,Vero cells,ATP,11 µM
Cc1cc(NC(=O)NCCc2ccc3c(n2)NCCC3)c(-c2ccccc2)o1,PBMC,-,28 µM
NC(=S)Nc1ccc2c(c1)Cc1cc(Br)ccc1-2,Ava5-EG(delta4AB)SEAP,MTS,>1 µM
Cc1c(-c2cccs2)n(C)c2ccc(OCC(C)C)c(C)c2c1=O,HeLa S3,MTT,>2.5 µg/mL
O=c1ccn(C/C=C/c2ccccc2)c(=O)n1Cc1cccc2ccccc12,HEL,MTT,>100 µM
CCc1cc2c(N)c(C(N)=O)sc2nc1C,CEM-SS,XTT,40 µM
COC(=O)c1c(C)cc(=O)c(O)c(O)c1O,CEM-SS,absorbance,1.4 µM
N=c1c2ncnc(Nc3ccc(F)cc3)c2ncn1NC(=O)c1ccco1,Vero cells,-,2.17 µg/mL
CCn1c(-c2cccc(F)c2)c(C)c(=O)c2cc(C(C)C)ccc21,HELA-OHIO,MTT,>4 µg/mL
CCCN(Cc1ccccc1OCC(=O)O)C(=O)c1ccc(-c2ccc3c(c2)OCO3)cc1,RAJI,-,>20 µM
O=c1oc(/C=C/c2ccc(C(F)(F)F)cc2)ns1,Vero cells,ATP,41 µM
Clc1ccc2c(NCc3nc4ccccc4[nH]3)ccnc2c1,HMEC-1,MTT,2.401 µM
CCn1c2c(c(=O)c3cc(C(C)C)ccc31)Cc1ccccc1-2,HELA-OHIO,MTT,>5 µg/mL
CCCCN1CCN(C(=S)Nc2cccc(OCc3ccccc3)c2)C1=S,Ava5-EG(delta4AB)SEAP,MTS,>1 µM
O=c1ccn(C/C=C/c2ccccc2)c(=O)n1Cc1cc(Cl)cc(Cl)c1,HEL,MTT,>100 µM
CCCCCCCNC(=S)Nc1ccc2c(c1)Cc1cc(Br)ccc1-2,Ava5-EG(delta4AB)SEAP,MTS,>1 µM
CCOC(=O)c1cccc(N2Cc3c(c(OC)c4ccccc4c3OC)CC2=N)c1,J774A.1 macrophages,neutral red,98.25 µM
Cc1ccc(-c2nc(CNc3ccnc4cc(Cl)ccc34)[nH]c2CN2CCCC2)cc1,HMEC-1,MTT,3.658 µM
Cc1ccn(-c2cccc(CCNC(=O)Nc3cccc(F)c3)n2)n1,PBMC,-,50 µM
CC(=O)Nn1cnc2c(Nc3ccc(F)cc3)ncnc2c1=N,Vero cells,-,18.7 µg/mL
COc1c(OCC(C)C)ccc2c1c(=O)c(C)c(-c1ccccc1)n2C,HELA-OHIO,MTT,>10 µg/mL
CC1(C)C(=O)CC[C@]2(C)[C@@H]1CC[C@@]13CC[C@@H](C[C@H]12)C([C@@H](O)CO)C3,HepG2/ADR,MTT,93.74 µM
N=c1c2ncnc(Nc3ccccc3)c2ncn1NC(=O)c1ccco1,Vero cells,-,3.16 µg/mL
CC(C)N(Cc1cccc(OCCCCCC(=O)OC(=O)O)c1)C(=O)c1ccc(-c2cc3ccccc3n2S(=O)(=O)c2ccccc2)cc1,RAJI,-,>20 µM
CO/N=C(\N)c1cccc(COc2ccc(/C(N)=N/OC)cc2I)c1,L6 rat myoblasts,resazurin,127 µM
CCOC(=O)c1cnc(Cc2ccccc2)c2cc(OC)ccc12,HEK293T,trypan blue,140 µM
COc1c2c(c(OC)c3ccccc13)CN(c1ccccc1Br)C(=N)C2,J774A.1 macrophages,neutral red,19.41 µM
CC(C)N(Cc1cccc(OCCCCCC(=O)O)c1)C(=O)c1ccc(-c2ccc3c(c2)OCO3)cc1,RAJI,-,>20 µM
CC(C)C[C@@H]1NC(=O)[C@H](Cc2c[nH]c3ccccc23)NC(=O)[C@H](CCCN=C(N)N)NC(=O)[C@H](CCCCN)NC(=O)[C@H](C(C)C)NC(=O)[C@@H](CC(C)C)NC1=O,Colorectal carcinoma,MTT,>30 µM
NC(=S)Nc1cccc(OCCCCCOc2c(Cl)cccc2Cl)c1,Ava5-EG(delta4AB)SEAP,MTS,>1 µM
N[C@@H](CCC(=O)O)C(=O)O[C@@H]1C=C(C(=O)O)[C@@H]2[C@H](C1)C(CO)=C[C@@H]2O,L6 rat skeletal myoblasts,resazurin,60.4 µg/mL
Nc1ccn(C[C@@H](CO)OCP(=O)(O)O)c(=O)n1,HEL,MTT,63 µM
CC1=C[C@H]2c3c(ccc4oc5cc(O)cc(O)c5c(=O)c34)OC(C)(C)[C@H]2CC1,HOG.R5,-,26.6 µM
Fc1ccc(-c2cnc(CNc3ccnc4cc(Cl)ccc34)[nH]2)cc1,HMEC-1,MTT,9.921 µM
Cc1ccc(-n2cc3c(cc2=N)C(=O)c2ccccc2C3=O)c(Br)c1,J774A.1 macrophages,neutral red,11.25 µM
CCOC(=O)CCCCCOc1cccc(CN(C(=O)c2ccc(-c3cccc([N+](=O)[O-])c3)cc2)C(C)C)c1,BJ,-,>20 µM
CC(C)C[C@@H]1NC(=O)[C@H](Cc2c[nH]c3ccccc23)NC(=O)[C@@H](CCCCN)NC(=O)[C@H](CCCCN)NC(=O)[C@H](C(C)C)NC(=O)[C@@H](CC(C)C)NC1=O,Colorectal carcinoma,MTT,>30 µM
C/C=C(\C)C(=O)OC[C@]1(C)C(=O)CC[C@@]2(C)[C@@H]3CC[C@H]4C[C@@]3(CC[C@@H]21)C[C@@]4(O)CO,HepG2/ADR,MTT,>100 µM
COc1c2c(c(OC)c3ccccc13)CN(c1ccccc1Cl)C(=N)C2,J774A.1 macrophages,neutral red,21.14 µM
Cc1ccc(-c2cnc(CNc3ccnc4cc(Cl)ccc34)[nH]2)cc1,HMEC-1,MTT,7.769 µM
COc1c(C)c2c(c(O)c1C/C=C(\C)CCC(=O)O)C(=O)OC2,QM5,-,5.1 µg/mL
CCCc1ccccc1NC(=O)NCCc1ccc2c(n1)NCCC2,PBMC,-,1.3 µM
CCn1c2c(c(=O)c3cc(C(C)C)ccc31)Cc1c-2ccn1C,HELA-OHIO,MTT,>10 µg/mL
CCOC(=O)c1sc(-c2ccccc2)nc1N1CCC(NCc2ccc(F)cc2)CC1,RAW 264.7,MTT,6.23 µM
C=C1C[C@@H](OC(=O)c2ccccc2)[C@H]2[C@](C)(C(=O)O)CCC[C@]2(C)C1CCC(C)=O,HELA229,-,0.94 µg/mL
COc1c2c(c(OC)c3ccccc13)CN(c1ccc(Br)cc1)C(=N)C2,J774A.1 macrophages,neutral red,21.01 µM
Cc1cc2c(c(C)c1OCC(C)C)c(=O)cc(-c1ccccc1)n2C,HELA-OHIO,MTT,>4 µg/mL
CC(C)=CCc1c(O)cc2oc3ccc4c(c3c(=O)c2c1O)C=CC(C)(C)O4,HOG.R5,-,15.8 µM
O=c1oc(/C=C/c2ccccc2)ns1,Vero cells,ATP,22 µM
N=c1cc2c(cn1-c1ccc([N+](=O)[O-])cc1)C(=O)c1ccccc1C2=O,J774A.1 macrophages,neutral red,19.48 µM

7 of the rows above, restated:

compound,cells,read by,result
CC(C)=CCc1c(O)cc2oc3ccc4c(c3c(=O)c2c1O)C=CC(C)(C)O4,HOG.R5,-,15.8 µM
CCOC(=O)c1cnc(Cc2ccccc2)c2cc(OC)ccc12,HEK293T,trypan blue,140 µM
N[C@@H](CCC(=O)O)C(=O)O[C@@H]1C=C(C(=O)O)[C@@H]2[C@H](C1)C(CO)=C[C@@H]2O,L6 rat skeletal myoblasts,resazurin,60.4 µg/mL
Clc1ccc(-c2cnc(CNc3ccnc4cc(Cl)ccc34)[nH]2)cc1,HMEC-1,MTT,7.447 µM
O=c1ccn(C/C=C/c2ccccc2)c(=O)n1Cc1cccc2ccccc12,HEL,MTT,>100 µM
CCCCN1CCN(C(=S)Nc2cccc(OCc3ccccc3)c2)C1=S,Ava5-EG(delta4AB)SEAP,MTS,>1 µM
COC(=O)c1c(C)cc(=O)c(O)c(O)c1O,CEM-SS,absorbance,1.4 µM